Compound potency records, mixed from different reports. Data source: NIAID ChemDB in PubChem.

All rows: whole-cell or culture tests; agent: HIV-1; endpoint: fold resistance

Conditions beyond the fields shown may differ between rows.

structure	mutations	read by	cells	strain or isolate	value
O=c1[nH]c2ccc(Cl)cc2n1Cc1c(F)cccc1F	RT-Y188H	cytopathic effect	CEM	-	>22.7
C1CNCCNCCCN(CCCN2CCCNCCNCCCNCC2)CCNC1	AMD3100-resistant	cytopathic effect / MTT	MT-4	NL4-3	>71.4
O=c1[nH]cnc2c1ncn2[C@H]1CC[C@@H](CO)O1	RT-A62V V75I F77L F116Y Q151M	β-galactosidase	MAGI (CCR5) + MAGI	HXB2	14
O=c1[nH]cnc2c1ncn2[C@H]1CC[C@@H](CO)O1	RT-Y181C	cytopathic effect / XTT	MT-4	T3-16(RT-Y181C)	1.08
CCOCn1c(Cc2ccccc2)c(C(C)C)c(=O)[nH]c1=O	RT-P225H	cytopathic effect	MT-4	Recombinant	5.7
Cc1cn([C@H]2C[C@H](N=[N+]=[N-])[C@@H](CO)O2)c(=O)[nH]c1=O	RT-M41L D67N K70R M184V T215Y	plaque count	HT4LACZ-1 + HT4 LacZ-1	RR/Q184 (RT M41L D67N K70R T215Y M184V)	3.5
CCOCn1c(Sc2ccccc2)c(CC)c(=O)[nH]c1=O	RT-C181I	syncytia	CEM	IIIB	69.3
Cc1ccc(-n2c(C)nnc2SCC(=O)Nc2ccc(C#N)cc2Cl)cc1	RT-K103N Y181C	luciferase	HeLa + HeLa-JC53	NL4-3	300
Cc1ccnc2c1NC(=O)c1cccnc1N2C1CC1	RT-L100I	cytopathic effect	MT-2	R82150 (RT-L100I)	10
COc1ccc(-n2c(C)nnc2SCC(=O)Nc2ccc(C)cc2Cl)c2ccccc12	RT-Y188L	luciferase	HeLa + HeLa-JC53	NL4-3	240
Fc1c(F)c(CN2CCCNCCNCCCNCC2)c(F)c(F)c1CN1CCCNCCNCCCNCC1	AMD3100-resistant	cytopathic effect / MTT	MT-4	NL4-3	5.33
COC(=O)c1cccc2c1nc(-c1c(F)cccc1F)n2Cc1c(F)cccc1F	RT-Y181C	cytopathic effect / MTT	MT-4	-	16.8
Nc1nc(NC2CC2)c2ncn([C@H]3C=C[C@@H](CO)C3)c2n1	RT-M41L D67N T69N K70R T215F K219E	RT activity	PBMC	7324-1 NRTI resistant recombinant	4.2
Cc1ccc(-n2c(C)nnc2SCC(=O)Nc2ccccc2Cl)cc1	RT-K103N Y181C	luciferase	HeLa + HeLa-JC53	NL4-3	215
CCc1c(C)[nH]c(=O)c(-n2cccc2)c1Cc1cc(C)cc(C)c1	RT-Y188L	cytopathic effect / MTT	MT-4	Recombinant	158
Nc1ccn([C@@H]2CO[C@H](CO)S2)c(=O)n1	RT-K65R	p24	C8166	RF	1.27
Cc1ccc(CCNC(=S)Nc2ccc(Br)cn2)cc1	RT-K103N Y181C	p24	PBMC	A17	>14300
CC(C)=CCN1Cc2cc(Cl)cc3[nH]c(=O)n(c23)C[C@@H]1C	RT-V106A	cytopathic effect	MT-4	Recombinant	17
CC(C)(C)C(=O)c1sc(C(=O)NCCc2ccccc2)c(O)c1O	INTG-Q148K	-	-	-	1
CC(=O)c1ccc(C)cc1NC(C(N)=O)c1c(Cl)cccc1Cl	RT-T240I	MTT	MAGI	IIIB	4.89
CC(C)=CCN1Cc2cccc3[nH]c(=S)n(c23)C[C@@H]1C	RT-L100I	cytopathic effect	MT-2	R82150 (RT-L100I)	>150
Fc1cccc(F)c1Cn1c(-c2c(F)cccc2F)nc2c(Br)cccc21	RT-V108I	cytopathic effect / MTT	MT-4	-	6.4
Cc1cn([C@H]2C[C@H](N=[N+]=[N-])[C@@H](CO)O2)c(=O)[nH]c1=O	RT-K65R	p24	MT-4	HXB2-D65(RT-K65R)	0.5
Cc1ccnc2c1NC(=O)c1cccnc1N2C1CC1	RT-Y181C	cytopathic effect / XTT	CEM + CEM-SS	E BPTU-resistant (RT Y181C)	190
c1ncc(CN2CCCNCCNCCCNCC2)cc1CN1CCCNCCNCCCNCC1	AMD3100-resistant	cytopathic effect / MTT	MT-4	NL4-3	5
CC(C)=CCOc1cc(NC(=S)c2ccoc2C)ccc1Cl	RT-V106A	cytopathic effect	MT-4	Recombinant	30
CCc1cc(NCc2nc3c(Cl)ccc(Cl)c3o2)c(=O)[nH]c1C	RT-C181I	syncytia	CEM	IIIB	>750
c1cc(CN2CCCNCCCNCCNCCC2)cc(CN2CCCNCCCNCCNCCC2)c1	AMD3100-resistant	cytopathic effect / MTT	MT-4	NL4-3	>125
Cc1cn([C@H]2C=C[C@@H](CO)O2)c(=O)[nH]c1=O	RT-T69K K70G V75I F77L F116Y Q151M M184V	RT activity	PBMC	1617-1 NRTI resistant recombinant	11
COc1ccc2c(c1)N(C(=O)OC(C)C)[C@@H](CSC)C(=S)N2	RT-P225H	cytopathic effect	MT-4	Recombinant	4
Cc1nnc(SCC(=O)Nc2ccc(S(N)(=O)=O)cc2Cl)n1-c1cc(Br)cc2cccnc12	RT-Y188L	luciferase	HeLa + HeLa-JC53	NL4-3	238
Cc1c(Sc2ccccc2)n(COCCO)c(=O)[nH]c1=O	RT-V90I T139I P225S	cytopathic effect / XTT	CEM + CEM-SS	IIIB	4
CCc1c(Sc2cc(C)cc(C)c2)n(COCCOP(=O)(O)OC[C@H]2O[C@@H](n3cc(C)c(=O)[nH]c3=O)C[C@@H]2N=[N+]=[N-])c(=O)[nH]c1=O	RT-D67N K70R K172R	cytopathic effect / MTT	MT-4	IIIB	5
CNc1cccc2c1nc(-c1c(F)cccc1F)n2Cc1c(F)cccc1F	RT-Y181C	cytopathic effect / MTT	MT-4	-	1.58
Cc1occc1C(=S)Nc1ccc(Cl)c(/C=N/OC(C)(C)C)c1	RT-L100I	cytopathic effect / XTT	CEM + CEM-SS	NL4-3 (RT L100I)	27.5
Nc1ccn([C@@H]2CS[C@H](CO)O2)c(=O)n1	RT-D67N T69N K70R M184V T215F K219Q	RT activity	PBMC	7295-1 NRTI resistant recombinant	>300
COc1cc(-n2c(C)nnc2SCC(=O)Nc2ccc(S(N)(=O)=O)cc2Cl)c2ncccc2c1	RT-Y188L	luciferase	HeLa + HeLa-JC53	NL4-3	462
CC(C)(C)C(=O)c1sc(C(=O)NCc2ccccc2)c(O)c1O	IN-T66I S153Y N155S	-	-	-	>43
Cc1cn([C@H]2C[C@H](N=[N+]=[N-])[C@@H](CO)O2)c(=O)[nH]c1=O	M200I	p24 / ELISA	MT-2	IIIB	1.3
CCCc1c(C)[nH]c(=O)c(N(C)C)c1Cc1cc(C)cc(C)c1	RT-K103N	cytopathic effect / MTT	MT-4	Recombinant	1.99
CC(C)(C)NC(=O)[C@@H]1C[C@@H]2CCCC[C@@H]2CN1C[C@@H](O)[C@H](Cc1ccccc1)NC(=O)[C@H](CC(N)=O)NC(=O)c1ccc2ccccc2n1	PR-G48V L90M	p24	C8166	RF	28.6
Cc1cn([C@H]2C[C@H](N=[N+]=[N-])[C@@H](CO)O2)c(=O)[nH]c1=O	RT-L100I	cytopathic effect	MT-2	R82150 (RT-L100I)	0.857
CCc1c(Sc2cc(C)cc(C)c2)n(COCCO)c(=O)[nH]c1=O	RT-Y181C	cytopathic effect / MTT	MT-4	IIIB MKC-442-resistant (RT Y181C)	343
Nc1nc2c(ncn2[C@H]2CO[C@@H](CO)O2)c(=O)[nH]1	RT-K70R Y188L	-	-	Clinical isolate	~1
C/C=C/CSc1cc(NC(=S)c2ccsc2C)ccc1Cl	RT-K103N	cytopathic effect / XTT	CEM + CEM-SS	NL4-3 (RT K103N)	16
CCc1c(Sc2ccccn2)n(COCc2ccccc2)c(=O)[nH]c1=O	RT-A98G	cytopathic effect / XTT	CEM + CEM-SS	NL4-3	1.11
Nc1ccn([C@H]2CC[C@@H](CO)O2)c(=O)n1	RT-Y181C	cytopathic effect / XTT	MT-4	T3-16(RT-Y181C)	0.7
O=c1[nH]cnc2c1ncn2[C@H]1CC[C@@H](CO)O1	RT-Y181C	cytopathic effect / MTT	MT-4	IIIB MKC-442-resistant (RT Y181C)	0.489
c1ccc(-c2cc(CN3CCCNCCNCCCNCC3)ccc2CN2CCCNCCNCCCNCC2)cc1	AMD3100-resistant	cytopathic effect / MTT	MT-4	NL4-3	90.3
COc1ccc(-n2c(C)nnc2SCC(=O)Nc2ccccc2Br)c2ccccc12	RT-K103N Y181C	luciferase	HeLa + HeLa-JC53	NL4-3	133
CC(C)Oc1ccc(Cc2ccccc2)cc1C(=O)CC(=O)C(=O)O	INTG-S153 N155S	-	-	-	47
CCOCn1c(Cc2ccccc2)c(C(C)C)c(=O)[nH]c1=O	RT-Y181C	cytopathic effect / MTT	MT-4	-	250
Nc1nc(=O)n([C@@H]2CS[C@H](CO)O2)cc1F	RT-M184V	plaque count	HT4 + HT4 LacZ-1	HXB2	>5560
CC(C)(C)NC(=O)[C@@H]1C[C@@H]2CCCC[C@@H]2CN1C[C@@H](O)[C@H](Cc1ccccc1)NC(=O)[C@H](CC(N)=O)NC(=O)c1ccc2ccccc2n1	PR-L10F M46I I84V	p24	MT-4	NL4-3.C7 (PR L10F M46I I84V)	1
Cc1cn([C@H]2C[C@H](N=[N+]=[N-])[C@@H](CO)O2)c(=O)[nH]c1=O	RT-L100I	cytopathic effect / XTT	MT-4	118(RT-L100I)	0.5
CC(=O)Nc1cccc2c1nc(-c1c(F)cccc1F)n2Cc1c(F)cccc1F	RT-K103N	cytopathic effect / MTT	MT-4	-	>12.5
Cc1ccnc2c1NC(=O)c1cccnc1N2C1CC1	RT-G190E	p24	H9	A1(RT-G190E)	>111
CC(=O)c1ccc(S(=O)(=O)N(CC(C)C)C[C@@H](O)[C@H](Cc2ccccc2)NC(=O)O[C@H]2CO[C@H]3OCC[C@H]32)cc1	PR-L10M/I K20R M36I A71V G73S V77I I84V L90M	cytopathic effect / MTT	MT-4	PI RES(PR-L10M/I K20R M36I A71V G73S V77I I84V L90M) M2	8.7
CCOP(=O)(COc1ccc(C[C@H](NC(=O)O[C@H]2CO[C@H]3OCC[C@H]32)[C@H](O)CN(CC(C)C)S(=O)(=O)c2ccc(OC)cc2)cc1)OCC	R41K	p24 / ELISA	MT-2	IIIB	1.4
S=C(NCCCn1ccnc1)Nc1nccs1	RT-Y181C	p24	PBMC	A17	>100000
Cc1ccnc2c1NC(=O)c1cccnc1N2C1CC1	RT-K103N	β-galactosidase	MAGI (CCR5) + MAGI	HXB2	55
CCOCn1c(Cc2cc(C)cc(C)c2)c(CC)c(=O)[nH]c1=O	RT-C181I	syncytia	CEM	IIIB	38.9
CC(C)OC(=O)OCOP(=O)(CO[C@H](C)Cn1cnc2c(N)ncnc21)OCOC(=O)OC(C)C	RT-M41L E44D D67N T69D Y118I M184V L210W T215Y	RT activity	PBMC	4755-5 NRTI resistant recombinant	2.3

Repeating the final 5 entries:

structure	mutations	read by	cells	strain or isolate	value
CCOP(=O)(COc1ccc(C[C@H](NC(=O)O[C@H]2CO[C@H]3OCC[C@H]32)[C@H](O)CN(CC(C)C)S(=O)(=O)c2ccc(OC)cc2)cc1)OCC	R41K	p24 / ELISA	MT-2	IIIB	1.4
S=C(NCCCn1ccnc1)Nc1nccs1	RT-Y181C	p24	PBMC	A17	>100000
Cc1ccnc2c1NC(=O)c1cccnc1N2C1CC1	RT-K103N	β-galactosidase	MAGI (CCR5) + MAGI	HXB2	55
CCOCn1c(Cc2cc(C)cc(C)c2)c(CC)c(=O)[nH]c1=O	RT-C181I	syncytia	CEM	IIIB	38.9
CC(C)OC(=O)OCOP(=O)(CO[C@H](C)Cn1cnc2c(N)ncnc21)OCOC(=O)OC(C)C	RT-M41L E44D D67N T69D Y118I M184V L210W T215Y	RT activity	PBMC	4755-5 NRTI resistant recombinant	2.3

Blank or dashed fields: not listed here. Fold resistance: result on the changed form divided by that on wild type.